We go through 3 compounds from ChEMBL document CHEMBL3817799, “N-Nitrosulfonamides: A new chemotype for carbonic anhydrase inhibition” (Bioorg Med Chem, 2016).

Usually Ki stands for a measure of affinity in units of concentration, obtained from inhibition or displacement.

Structures are written as SMILES.

This assay is described as follows: Inhibition of Malassezia globosa beta carbonic anhydrase preincubated for 15 mins prior to testing by stopped flow CO2 hydrase assay.
The compound `Nc1cc(S(=O)(=O)N[N+](=O)[O-])cc([N+](=O)[O-])c1O` had a Ki of 670 nM. The compound `Nc1ccc(S(=O)(=O)N[N+](=O)[O-])cc1` gave a Ki of 710 nM.

Regarding `Nc1ccccc1S(=O)(=O)N[N+](=O)[O-]`, the inhibition constant Ki was 660 nM.
